Results as given in patent US20240140975A1, “ANTIVIRAL APPLICATION OF NUCLEOSIDE ANALOG OR COMBINATION FORMULATION CONTAINING NUCLEOSIDE ANALOG” (priority 2020, published 2024).

Experiment: Pharmacokinetic evaluation in mice
Conditions: oral administration

Row | Compound | plasma exposure relative to that of GS-441524 [times]
1 | [2H]c1cc([C@]2(C#N)O[C@H](C([2H])([2H])O)[C@@H](O)[C@H]2O)n2ncnc(N)c12 (stereo in doubt) [Compound A11] | 1.2
2 | [2H]c1cc([C@]2(C#N)O[C@H](CO)[C@@H](O)[C@H]2O)n2ncnc(N)c12 [Compound A9] | 1.3
